Measurements reported in PubChem BioAssay AID504761 (Drosophila RNAi Screening Center, 2011).

Aim: 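Genome-wide fly cell screen for genes dengue virus requires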 (primary screen)
Cells: D.Mel-2 cells from Drosophila
Knock-down reagent: long dsRNA against Drosophila genes
Treatment: infection with dengue virus type 2; dose and infection time not stated
Read-out: 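Per well on two replicate plates, imaging gave the percent of cells positive for viral envelope protein, ranked by infection, and a nuclear count of cells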
Scale: infection score: higher = more virus-infected cells
Rule for the call: 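Low infection ranks in the two replicates (chance level up to 0.065) followed by a retest with a 1.5-fold or larger significant decrease, p below 0.05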
Meaning of the calls: active = confirmed: knock-down lowers infection; inactive = not picked or not confirmed
The deposit covers about 22,000 reagents; shown is a random part of those that have a named target and a result. In the full data, 116 (0.52%) were called active. 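Calls depend on retest data that are not deposited; infection was ranked per plate without normalising between plates; the unit of the infection score is not given.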 Not all columns of the deposit are shown. The record does not give: the amount of reagent, the time to read-out.

{"target": "Lrp4", "dsRNA": "DRSC20118", "infection score, replicate 1": 4.76, "call": "inactive"}
{"target": "CG34327", "dsRNA": "DRSC19517", "infection score, replicate 1": 4.36, "call": "inactive"}
{"target": "CG34327", "dsRNA": "DRSC22380", "infection score, replicate 1": 3.94, "call": "inactive"}
{"target": "CG34327", "dsRNA": "DRSC29197", "infection score, replicate 1": 13.2, "call": "inactive"}
{"target": "Hen1", "dsRNA": "DRSC06139", "infection score, replicate 1": 22.1, "call": "inactive"}
{"target": "Hen1", "dsRNA": "DRSC06140", "infection score, replicate 1": 22.1, "call": "inactive"}
{"target": "Hen1", "dsRNA": "DRSC26993", "infection score, replicate 1": 15.5, "call": "inactive"}
{"target": "CG8814", "dsRNA": "DRSC00707", "infection score, replicate 1": 4.52, "call": "inactive"}
{"target": "CG8814", "dsRNA": "DRSC25994", "infection score, replicate 1": 6.17, "call": "inactive"}
{"target": "Stip1", "dsRNA": "DRSC00756", "infection score, replicate 1": 7.01, "call": "inactive"}
{"target": "CG32486", "dsRNA": "DRSC08413", "infection score, replicate 1": 12.8, "call": "inactive"}
{"target": "CG32486", "dsRNA": "DRSC08488", "infection score, replicate 1": 1.83, "call": "inactive"}
{"target": "CG6891", "dsRNA": "DRSC20016", "infection score, replicate 1": 9.99, "call": "inactive"}
{"target": "CG6891", "dsRNA": "DRSC25854", "infection score, replicate 1": 1.57, "call": "inactive"}
{"target": "Pu", "dsRNA": "DRSC04645", "infection score, replicate 1": 2.14, "call": "active"}
{"target": "Pu", "dsRNA": "DRSC29066", "infection score, replicate 1": 10, "call": "inactive"}
{"target": "Taf4", "dsRNA": "DRSC11297", "infection score, replicate 1": 0.98, "call": "active"}
{"target": "Taf4", "dsRNA": "DRSC25921", "infection score, replicate 1": 3.69, "call": "inactive"}
{"target": "Sar1", "dsRNA": "DRSC17049", "infection score, replicate 1": 1.38, "call": "inactive"}
{"target": "Sar1", "dsRNA": "DRSC22115", "infection score, replicate 1": 0.78, "call": "inactive"}
{"target": "Sar1", "dsRNA": "DRSC24141", "infection score, replicate 1": 1.25, "call": "inactive"}

Not a retest: 2 of the entries above.
{"target": "CG34327", "dsRNA": "DRSC29197", "infection score, replicate 1": 13.2, "call": "inactive"}
{"target": "Hen1", "dsRNA": "DRSC06139", "infection score, replicate 1": 22.1, "call": "inactive"}
